Results of unrelated studies side by side (data: NIAID ChemDB).

All rows: whole-cell or culture tests; species: Streptococcus pneumoniae; measure: MIC

Lines come from different laboratories, so protocols vary.

SMILES | strain or isolate | value
CC[C@H]1OC(=O)[C@@](C)(F)C(=O)[C@H](C)[C@@H](O[C@@H]2O[C@H](C)C[C@H](N(C)C)[C@H]2O)[C@@]2(C)C[C@@H](C)C(=NC(C)=O)[C@H](C)[C@@H](OC/C(=N\OCc3ccc(C(N)=O)cc3)CO2)[C@]1(C)O | 700906 (erythromycin A-resistant) | 0.25 µg/mL
O=C(Nc1cccc(C2=NCCN2)c1)Nc1cccc(C2=NCCN2)c1 | STP51 (penicillin-resistant) | 134 µM
O=C(O)NC[C@H]1CC(c2ccc(-n3cccc3)c(F)c2)=NO1 | UC9912 | 0.5 µg/mL
O=C(NNC(=O)Nc1cc(C(F)(F)F)cc(C(F)(F)F)c1)Nc1cc(C(F)(F)F)cc(C(F)(F)F)c1 | STP51 (penicillin-resistant) | >300 µM
CC(=O)NC[C@H]1CN(c2ccc(C3CCS(=O)(=O)CC3)c(F)c2)C(=O)O1 | UC9912 | 0.25 µg/mL
CC[C@H]1OC(=O)[C@H](C)C(=O)[C@H](C)[C@@H](O[C@@H]2O[C@H](C)C[C@H](N(C)C)[C@H]2O)[C@@]2(C)C[C@@H](C)C(=NC(C)=O)[C@H](C)C(OC/C(=C\C#Cc3ccc(N)cc3)CO2)[C@]1(C)O | 7701 (erythromycin-resistant-MEF) | 0.25 µg/mL
CC[C@H]1OC(=O)[C@H](C)C(=O)[C@H](C)[C@@H](O[C@@H]2O[C@H](C)C[C@H](N(C)C)[C@H]2O)[C@@]2(C)C[C@@H](C)C(=NC(C)=O)[C@H](C)[C@@H](OC/C(=N\OCCc3ccccc3)CO2)[C@]1(C)O | 49619 (erythromycin-susceptible) | <0.06 µg/mL
O=C(O)NC[C@H]1CC(c2cc(F)c(N3CCOCC3)c(F)c2)=NO1 | UC9912 | 1 µg/mL
CC[C@H]1OC(=O)[C@H](C)C(=O)[C@H](C)[C@@H](O[C@@H]2O[C@H](C)C[C@H](N(C)C)[C@H]2O)[C@@]2(C)C[C@@H](C)C(=NC(C)=O)[C@H](C)C(OC/C(=C\C=C\c3cccc([N+](=O)[O-])c3)CO2)[C@]1(C)O | 49619 (erythromycin-susceptible) | <0.06 µg/mL
CC[C@H]1OC(=O)[C@H](C)C(=O)[C@H](C)[C@@H](O[C@@H]2O[C@H](C)C[C@H](N(C)C)[C@H]2O)[C@@]2(C)C[C@@H](C)C(=NC(C)=O)[C@H](C)[C@@H](OC/C(=N\OCc3ccc4nc(N)sc4c3)CO2)[C@]1(C)O | 49619 (erythromycin-susceptible) | <0.06 µg/mL
CC(=O)NC[C@H]1CN(c2ccc(-c3cnn(C(C)=O)c3)c(F)c2)C(=O)O1 | UC9912 | 0.5 µg/mL
CC[C@H]1OC(=O)[C@H](C)C(=O)[C@H](C)[C@@H](O[C@@H]2O[C@H](C)C[C@H](N(C)C)[C@H]2O)[C@@](C)(OC/C=C/c2cccc3cccnc23)C[C@@H](C)C(=O)[C@H](C)[C@H]2NC(=O)O[C@@]21C | ATCC 6303 | 0.125 µg/mL
CC[C@H]1OC(=O)[C@H](C)C(=O)[C@H](C)[C@@H](O[C@@H]2O[C@H](C)C[C@H](N(C)C)[C@H]2O)[C@@]2(C)C[C@@H](C)C(=NC(C)=O)[C@H](C)C(OC/C(=N\OCC#Cc3cccc(N)n3)CO2)[C@]1(C)O | 700906 (erythromycin-resistant-ERM) | <0.06 µg/mL
CC[C@H]1OC(=O)[C@@](C)(F)C(=O)[C@H](C)[C@@H](O[C@@H]2O[C@H](C)C[C@H](N(C)C)[C@H]2O)[C@@]2(C)C[C@@H](C)C(=NC(C)=O)[C@H](C)[C@@H](OC/C(=N\OCc3ccc(-c4csnn4)nc3)CO2)[C@]1(C)O | 49619 (erythromycin A-susceptible) | <0.06 µg/mL
CC(=O)NC[C@H]1CN(c2ccc(-c3ccsc3)c(F)c2)C(=O)O1 | UC9912 | ≤0.125 µg/mL
CC[C@H]1OC(=O)[C@H](C)C(=O)[C@H](C)[C@@H](O[C@@H]2O[C@H](C)C[C@H](N(C)C)[C@H]2O)[C@@]2(C)C[C@@H](C)C(=NC(C)=O)[C@H](C)C(OC/C(=C\C=C\c3cccnc3)CO2)[C@]1(C)O | 700906 (erythromycin-resistant-ERM) | 0.25 µg/mL
O=C(CC(=O)Nc1cc(C(F)(F)F)cc(C(F)(F)F)c1)Nc1cccc(C2=NCCN2)c1 | STP51 (penicillin-resistant) | 27 µM
CC(=O)NC[C@H]1CN(c2ccc(-c3cnn(C(c4ccccc4)(c4ccccc4)c4ccccc4)c3)c(F)c2)C(=O)O1 | UC9912 | >64 µg/mL
O=C(NNC(=O)Nc1cc(C(F)(F)F)cc(C(F)(F)F)c1)Nc1ccccc1 | STP51 (penicillin-resistant) | >200 µM
C[C@@H]1CN(c2c(F)c(N)c3c(=O)c(C(=O)O)cn(C4CC4)c3c2F)C[C@H](C)N1 | J24 (quinolone- penicillin-sensitive) | 0.1 µg/mL
CC[C@H]1OC(=O)[C@H](C)C(=O)[C@H](C)[C@@H](O[C@@H]2O[C@H](C)C[C@H](N(C)C)[C@H]2O)[C@@]2(C)C[C@@H](C)C(=O)[C@H](C)C(OC/C=C/CO2)[C@]1(C)O | 49619 (erythromycin-susceptible) | 0.5 µg/mL
CC[C@H]1OC(=O)[C@H](C)C(=O)[C@H](C)[C@@H](O[C@@H]2O[C@H](C)C[C@H](N(C)C)[C@H]2O)[C@@]2(C)C[C@@H](C)C(=NC(C)=O)[C@H](C)[C@@H](OC/C(=N\OCCCc3ccccc3)CO2)[C@]1(C)O | 7701 (erythromycin-resistant-MEF) | 0.25 µg/mL
COc1c(N2C[C@@H]3CCCN[C@@H]3C2)ccc2c(=O)c(C(=O)O)cn(C3CC3)c12 | R6-G8 | 1 µg/mL
CC[C@H]1OC(=O)[C@H](C)C(=O)[C@H](C)[C@@H](O[C@@H]2O[C@H](C)C[C@H](N(C)C)[C@H]2O)[C@](C)(OC)C[C@@H](C)C2=NCCN3C(=O)O[C@@]1(C)[C@H]3[C@H]2C | ATCC 6303 | 0.06 µg/mL
O=C(O)NC[C@H]1CC(c2ccc(-n3ccnc3)c(F)c2)=NO1 | UC9912 | 1 µg/mL
CC1(C)S[C@@H]2[C@H](NC(=O)Cc3ccccc3)C(=O)N2[C@H]1C(=O)O | J24 (quinolone- penicillin-sensitive) | 0.025 µg/mL
COc1ccc(-c2ccc(C3=CC(CNC(C)=O)OC3=O)cc2)ccc1=O | UC9912 | <0.5 µg/mL
COc1c(N2CCNC(C)C2)ccc2c(=O)c(C(=O)O)cn(C3CC3)c12 | R6-G8 | 8 µg/mL
CCOC(=O)c1nc(-c2ccc(N3C[C@H](CNC(C)=O)OC3=O)cc2F)ns1 | UC9912 | >16 µg/mL
CC[C@H]1OC(=O)[C@H](C)C(=O)[C@H](C)[C@@H](O[C@@H]2O[C@H](C)C[C@H](N(C)C)[C@H]2O)[C@@]2(C)C[C@@H](C)C(=NC(=O)CO)[C@H](C)C(OC/C(=C\C=C\c3ccccc3)CO2)[C@]1(C)O | 7701 (erythromycin-resistant-MEF) | 0.5 µg/mL
CC[C@H]1OC(=O)[C@@](C)(F)C(=O)[C@H](C)[C@@H](O[C@@H]2O[C@H](C)C[C@H](N(C)C)[C@H]2O)[C@@]2(C)C[C@@H](C)C(=NC(C)=O)[C@H](C)[C@@H](OC/C(=N\OCc3ccc(N)nc3)CO2)[C@]1(C)O | 7701 (erythromycin A-resistant) | 0.25 µg/mL
O=C(CC(=O)Nc1cccc(C(F)(F)F)c1)Nc1cccc(C(F)(F)F)c1 | STP51 (penicillin-resistant) | >300 µM
CC(=O)NC[C@H]1CN(c2ccc(-c3ccn(C)n3)c(F)c2)C(=O)O1 | UC9912 | 1 µg/mL
C[C@H]1NCc2cc(-c3ccc4c(=O)c(C(=O)O)cn(C5CC5)c4c3OC(F)F)ccc21 | D-1687 | 0.25 µg/mL
CC(=O)NC[C@H]1CN(c2ccc3c(c2)OCc2nccn2-3)C(=O)O1 | 13 | 0.125 µg/mL
O=C(NC[C@H]1CN(c2ccc(C3CCS(=O)(=O)CC3)c(F)c2)C(=O)O1)C1CC1 | UC9912 | 2 µg/mL

Repeating the final 5 entries:

SMILES | strain or isolate | value
O=C(CC(=O)Nc1cccc(C(F)(F)F)c1)Nc1cccc(C(F)(F)F)c1 | STP51 (penicillin-resistant) | >300 µM
CC(=O)NC[C@H]1CN(c2ccc(-c3ccn(C)n3)c(F)c2)C(=O)O1 | UC9912 | 1 µg/mL
C[C@H]1NCc2cc(-c3ccc4c(=O)c(C(=O)O)cn(C5CC5)c4c3OC(F)F)ccc21 | D-1687 | 0.25 µg/mL
CC(=O)NC[C@H]1CN(c2ccc3c(c2)OCc2nccn2-3)C(=O)O1 | 13 | 0.125 µg/mL
O=C(NC[C@H]1CN(c2ccc(C3CCS(=O)(=O)CC3)c(F)c2)C(=O)O1)C1CC1 | UC9912 | 2 µg/mL